This is an account of results in publication PMC8587785, “A New Class of Uracil–DNA Glycosylase Inhibitors Active against Human and Vaccinia Virus Enzyme” (Molecules, 2021).

The data set has as its system HEK 293FT cells. As to the kind of experiment: Cell toxicity assay (MTT). Format: cell-based, human. The note with it: 0.1 μM MTX vs no MTX.

Turning to `COc1cc(C=C2C(=O)NC(=O)NC2=O)cc(Cl)c1OC` [4F], the “increase in the effective concentration” value is 1.5–2 fold. For `COc1ccc(C=C2C(=O)NC(=O)NC2=O)c(OC)c1` [4B], the “increase in the effective concentration” value is 1.5–2 fold.
